Results of unrelated studies side by side (data: NIAID ChemDB).

Shared fields: cytotoxicity tests; measure: CC50

CCn: concentration that lowers growth or viability of the cells by n%.

compound,cells,method,result
N#Cc1nc2c(-c3nc4ccccc4s3)c(N)n(CCCn3ccnc3)c2nc1C#N,L6 rat skeletal myoblasts,resazurin / fluorescence,18 µM
CSc1nsc(-c2ccc(OS(=O)(=O)c3ccc(C)cc3)cc2)c1C#N,L929,-,25 µM
CN(Cc1ncccc1Br)Cc1nc2ccccc2n1CCC#N,C8166,MTT,>10 µM
CCSc1n[nH]c(-c2cccc([N+](=O)[O-])c2C)n1,Panc-1,-,>100 µg/mL
N=c1nc(N)c2ncn([C@@H]3O[C@H](CO)[C@@H](O)[C@H]3O)c2c(N)n1,Daudi dividing cells,-,>50 µM
COc1ccc(Cn2c(N)c(-c3nc4ccccc4[nH]3)c3nc(C#N)c(C#N)nc32)cc1O,L6 rat skeletal myoblasts,resazurin / fluorescence,187 µM
Nc1cc(OC[C@H]2CC[C@@H](COCc3ccccc3)O2)nc(N)n1,L1210,-,>250 µM
O=c1[nH]c(=O)n([C@H]2C[C@H](O)[C@@H](COP3(=O)OCc4cccc(-c5ccccc5)c4O3)O2)cc1/C=C/Br,HELF,-,55.2 µg/mL
CCOC(=O)CCCCCOc1cccc(CN(C(=O)c2ccc(-c3cccc([N+](=O)[O-])c3)cc2)C(C)C)c1,BJ,-,>20 µM
COc1ccc(Cn2c(N)c(-c3nc4ccccc4[nH]3)c3nc(C#N)c(C#N)nc32)cc1OC,L6 rat skeletal myoblasts,resazurin / fluorescence,100 µM
Cc1cn([C@@H]2O[C@H](CO)[C@@H](N=[N+]=[N-])[C@H]2F)c(=O)[nH]c1=O,HL-60,-,>1000 µM
CN(C)CCn1c(N)c(-c2nc3ccccc3[nH]2)c2nc(C#N)c(C#N)nc21,L6 rat skeletal myoblasts,resazurin / fluorescence,6 µM
CCSc1n[nH]c(-c2ccc(Cl)cc2C)n1,Panc-1,-,>100 µg/mL
CN1CCN(c2ccnc3nc(CN(CCCCN)Cc4ncc[nH]4)[nH]c23)CC1,C8166,MTT,>10 µM
CN1CCN(c2ccc(OCCCCCOc3cccc(NC(N)=S)c3)cc2)CC1,Ava5-EG(delta4AB)SEAP,MTS,>1 µM
N#Cc1nc2c(-c3nc4ccccc4[nH]3)c(N)n(CCCn3ccnc3)c2nc1C#N,L6 rat skeletal myoblasts,resazurin / fluorescence,>100 µM
CCOC(=O)CC1OP(=O)(OC[C@H]2O[C@@H](n3cc(/C=C/Br)c(=O)[nH]c3=O)C[C@@H]2O)Oc2cccc(Cl)c21,HELF,-,35.8 µg/mL
Nc1nc(Cl)cc(OC[C@@H]2O[C@H](COCc3ccccc3)[C@@H](OCc3ccccc3)[C@H]2OCc2ccccc2)n1,CAKI-1,-,76 µM
O=C(NCc1ccccc1)c1ccc(-c2ccc3c(c2)OCO3)cc1,BJ,-,>20 µM
CNc1nnc(NCc2ccccc2)nn1,Mammalian cells,-,>115 µM
CC(C)N(Cc1cccc(OCCCCCC(=O)OC(=O)O)c1)C(=O)c1ccc(-c2cccc(C#N)c2)cc1,RAJI,-,>20 µM
OCC12C(c3ccccc3)C3(CO)C4N(Cc5ccccc5)C1C1(CO)C(C5C=CC=CC5)C4(CO)C3N(Cc3ccccc3)C21,EPG85-257DB,-,80 µM
COc1ccc(C2C3=C(CC(C)(C)CC3=O)Nc3ccccc3N2C(C)=O)cc1OCc1ccccc1,MT4-LTR-LUC,-,>32 µM
CCOC(=O)CCCCCOc1cccc(CN(C(=O)c2ccc(-c3cccc(N(C)C)c3)cc2)C(C)C)c1,BJ,-,>20 µM
C=C(C)C1CC[C@@H]2CC[C@]3(C)C(CCC4[C@@]5(C)CC[C@H](O)C(C)(C)C5CC[C@]43C)C12,1A2,XTT,11.6 µg/mL
CCSc1n[nH]c(-c2cccc(C(F)(F)F)c2)n1,Panc-1,-,>100 µg/mL
O=c1[nH]c(=O)n([C@H]2C[C@H](O)[C@@H](COP3(=O)OCc4ccc5ccccc5c4O3)O2)cc1/C=C/Br,HELF,-,34.1 µg/mL
S=C(NCCCc1ccccc1)Nc1ccc2c(c1)Cc1cc(Br)ccc1-2,Ava5-EG(delta4AB)SEAP,MTS,>1 µM
COc1cc(OC[C@H]2CC[C@@H](CO)O2)ncn1,L1210,-,196 µM
S=C1NCCN1C(=S)Nc1cccc(OCc2ccccc2)c1,Ava5-EG(delta4AB)SEAP,MTS,>1 µM
Br.CN1C=CN(c2cccc(N3C=CN(C)C3)n2)C1,HT-29,sulforhodamine / absorbance,>30 µM
CN(Cc1nc2ccccc2[nH]1)Cc1ncccc1CCCNC(=O)N(C)C,C8166,MTT,>10 µM
N#Cc1c(-c2ccccc2)nsc1Cl,HEP-2,-,20 µM
Clc1ccc(Nc2nnc(NCc3ccccc3)nn2)cc1,Mammalian cells,-,29 µM
CC(C)c1nc(CN(C)C(=O)N[C@H](C(=O)N[C@@H](Cc2ccccc2)C[C@H](O)[C@H](Cc2ccccc2)NC(=O)OCc2cncs2)C(C)C)cs1,EPG85-257P,-,55 µM
NC(=S)Nc1cccc(OCCCCCOc2ccc(Oc3ccccc3)cc2)c1,Ava5-EG(delta4AB)SEAP,MTS,>1 µM
C#CCSc1n[nH]c(-c2cccc([N+](=O)[O-])c2C)n1,Panc-1,-,>100 µg/mL
C=C(C)C1CC[C@]2(C(=O)O)CC[C@]3(C)C(CCC4[C@@]5(C)C[C@@H](O)[C@H](OC(C)=O)C(C)(C)C5CC[C@]43C)C12,1A2,XTT,19.8 µg/mL
Nc1nc(N)nc(OC[C@H]2CC[C@@H](CO)O2)n1,CAKI-1,-,210 µM
CN(Cc1nc2ncccc2[nH]1)Cc1ncccc1CCC#N,C8166,MTT,>10 µM
C#CCSc1n[nH]c(-c2ccc(Cl)cc2C)n1,Panc-1,-,>100 µg/mL
CSc1nsc(C2CCCCC2)c1C#N,HEP-2,-,50 µM
Nc1nc(=O)n([C@@H]2O[C@H](CO)[C@@H](CO)[C@@H]2F)cc1F,PBM,-,≥100 µM
CC(C)N(Cc1cccc(OCCCCCC(=O)OC(=O)O)c1)C(=O)c1ccc(-c2cccc(N(C)C)c2)cc1,RAJI,-,>20 µM
CC(Nc1nnc(Nc2ccc(Cl)cc2)nn1)c1ccccc1,Mammalian cells,-,38 µM
COc1cc(OC[C@H]2CC[C@@H](CO)O2)nc(N)n1,L1210,-,>250 µM
N#Cc1nc2c(-c3nc4ccccc4[nH]3)c(N)n(CCc3cccc(Cl)c3)c2nc1C#N,L6 rat skeletal myoblasts,resazurin / fluorescence,52 µM
Cc1cn([C@@H]2O[C@H](CO)[C@@H](F)[C@@H]2F)c(=O)[nH]c1=O,HL-60,-,>1000 µM
N#Cc1nc2c(-c3nc4ccccc4[nH]3)c(N)n(CCc3ccccc3Cl)c2nc1C#N,L6 rat skeletal myoblasts,resazurin / fluorescence,143 µM
CCSc1n[nH]c(-c2ccc([N+](=O)[O-])c(C)c2)n1,THP-1,-,>100 µg/mL
N#Cc1nc2c(-c3nc4ccccc4[nH]3)c(N)n(CCCN3CCOCC3)c2nc1C#N,L6 rat skeletal myoblasts,resazurin / fluorescence,3 µM
Cc1cn([C@@H]2O[C@H](CO)[C@@H](F)[C@H]2F)c(=O)[nH]c1=O,HL-60,-,>1000 µM
NC(=S)Nc1ccc2c(c1)Cc1cc(NCCCc3ccccc3)ccc1-2,Ava5-EG(delta4AB)SEAP,MTS,>1 µM
Cc1cn([C@@H]2O[C@H](CO)[C@@H](F)[C@@H]2F)c(=O)nc1N,HL-60,-,123 µM
COc1cccnc1CN(CCCCN)Cc1nc2nccc(N3CCN(C)CC3)c2[nH]1,C8166,MTT,>10 µM
Nc1nccc(OC[C@H]2CC[C@@H](CO)O2)n1,CAKI-1,-,156 µM
S=c1cc(-c2ccccc2)s[nH]1,HEP-2,-,90 µM
CN(Cc1nc2ccccc2[nH]1)Cc1ncccc1CCCNC(=O)Cc1ccc(F)cc1,C8166,MTT,10 µM
O=c1[nH]c(=O)n([C@H]2C[C@H](O)[C@@H](CO[P@]3(=O)OCc4cccc(-c5ccccc5)c4O3)O2)cc1/C=C/Br,HELF,-,73.1 µg/mL
Nc1nc(Cl)cc(OC[C@H]2CC[C@@H](COCc3ccccc3)O2)n1,L1210,-,132 µM
CSc1nsc(SC)c1C#N,L929,-,12 µM
COc1cc(F)cc(-c2ccc(C(=O)N(Cc3cccc(OCCCCCC(=O)OC(=O)O)c3)C(C)C)cc2)c1,BJ,-,>20 µM
Cc1cn([C@H]2C[C@H](F)[C@@H](COS(C)(=O)=O)O2)c(=O)[nH]c1=O,HL-60,-,>1000 µM
Cc1ccc(-c2ccc(OCCCCCOc3cccc(NC(N)=S)c3)cc2)cc1,Ava5-EG(delta4AB)SEAP,MTS,>1 µM

The last 4 rows once more:

compound	cells	method	result
CSc1nsc(SC)c1C#N	L929	-	12 µM
COc1cc(F)cc(-c2ccc(C(=O)N(Cc3cccc(OCCCCCC(=O)OC(=O)O)c3)C(C)C)cc2)c1	BJ	-	>20 µM
Cc1cn([C@H]2C[C@H](F)[C@@H](COS(C)(=O)=O)O2)c(=O)[nH]c1=O	HL-60	-	>1000 µM
Cc1ccc(-c2ccc(OCCCCCOc3cccc(NC(N)=S)c3)cc2)cc1	Ava5-EG(delta4AB)SEAP	MTS	>1 µM

Blank or dashed fields: not listed here. Lines come from different laboratories, so protocols vary.